Data: article PMC8207647

Key:
Assay in all cases: purified protein
Settings in all cases: O2 co-substrate, pH 7.5 sodium phosphate 50 mM, 35 °C
OCc1ccccc1 = test system: OCc1ccccc1
COc1cccc(CO)c1 = test system: COc1cccc(CO)c1
O=Cc1ccc(CO)o1 = test system: O=Cc1ccc(CO)o1
COc1ccc(CO)cc1OC = test system: COc1ccc(CO)cc1OC
O=Cc1ccc(C=O)o1 = test system: O=Cc1ccc(C=O)o1
O=C(O)c1ccc(CO)o1 = test system: O=C(O)c1ccc(CO)o1

## FgrAAO (Fusarium graminearum PH-1)
OCc1ccccc1
  Km: 86 ± 12 mM
  kcat: 37 s⁻¹
  kcat/Km: 430 M⁻¹ s⁻¹
COc1cccc(CO)c1
  Km: 6.5 ± 1.5 mM
  kcat: 52 s⁻¹
  kcat/Km: 8000 M⁻¹ s⁻¹
O=Cc1ccc(CO)o1
  Km: 14 ± 2.6 mM
  kcat: 29 s⁻¹
  kcat/Km: 2100 M⁻¹ s⁻¹
COc1ccc(CO)cc1OC
  Km: 3.7 ± 0.75 mM
  kcat: 41 s⁻¹
  kcat/Km: 11000 M⁻¹ s⁻¹
O=Cc1ccc(C=O)o1
  Km: 10 ± 2.9 mM
  kcat: 3.6 s⁻¹
  kcat/Km: 360 M⁻¹ s⁻¹
O=C(O)c1ccc(CO)o1
  Km: 4.4 ± 0.90 mM
  kcat: 3.8 s⁻¹
  kcat/Km: 860 M⁻¹ s⁻¹

## FoxAAO (Fusarium oxysporum f. sp. lycopersici 4287)
COc1cccc(CO)c1
  Km: 6.7 ± 0.59 mM
  kcat: 34 s⁻¹
  kcat/Km: 5100 M⁻¹ s⁻¹
